Source: paper PMC12363175

How the values were obtained:
Test in all cases: SPR
[1] = molecular target: golden hamster ACE2 ectodomain fused with mFc (golden hamster (Mesocricetus auratus))
[2] = molecular target: bovine ACE2 ectodomain fused with mFc (bovine (Bos taurus)) (UniProt Q58DD0)
[3] = molecular target: fox ACE2 ectodomain fused with mFc (fox (Vulpes vulpes))
[4] = molecular target: rabbit ACE2 ectodomain fused with mFc (rabbit (Oryctolagus cuniculus))
[5] = molecular target: horse ACE2 ectodomain fused with mFc (horse (Equus caballus))
[6] = molecular target: sheep ACE2 ectodomain fused with mFc (sheep (Ovis aries))
[7] = molecular target: Chinese hamster ACE2 ectodomain fused with mFc (Chinese hamster (Cricetulus griseus))
[8] = molecular target: minke whale ACE2 ectodomain fused with mFc (minke whale (Balaenoptera acutorostrata scammoni))
[9] = molecular target: cat ACE2 ectodomain fused with mFc (cat (Felis catus)) (UniProt Q56H28)
[10] = molecular target: pig ACE2 ectodomain fused with mFc (pig (Sus scrofa))
[11] = molecular target: civet ACE2 ectodomain fused with mFc (civet (Paguma larvata)) (UniProt Q56NL1)

BANAL-20-52-RBD (domain or fragment)
Kd [1]: < 100 nM
Kd [2]: < 100 nM
Kd [3]: < 100 nM
Kd [4]: < 100 nM
Kd [5]: < 100 nM
Kd [6]: < 100 nM
Kd [7]: < 100 nM
Kd [8]: < 100 nM
Kd [9]: < 100 nM
Kd [10]: < 100 nM

CX1-RBD (domain or fragment)
Kd [4]: < 5 nM
Kd [10]: < 5 nM
Kd [11]: 5500 nM
